Results reported in patent publication US20250263469A1, “POLYPEPTIDES TARGETING SARS-COV-2 AND RELATED COMPOSITIONS AND METHODS” (HOSPITAL FOR SICK CHILDREN, published 2025).

Target: Spike of authentic SARS-CoV-2/SB2-P4-PB virus (SARS-CoV-2, UniProt P0DTC2 14-1273)
Experiment: cell-based or functional assay

| Binder | IC50 SARS-CoV2/SB2-P4-PB (authentic virus), IgG |
| --- | --- |
| mAb 80 (antibody, V domains shown) VH: QVQLVQSGAEVKKPGSSVKVSCKASGGTFNRYAFSWVRQAPGQGLEWMGGIIPIFGTANYAQKFQGRVTITADESTSTAYMELSSLRSEDTAVYYCARSTRELPEVVDWYFDLWGRGTLVTVSS VL: DIVMTQSPDSLAVSLGERATINCKSSQSVLYSSNNKNYLAWYQQKPGQPPKLLIYWASTRESGVPDRFSGSGSGTDFTLTISSLQAEDVAVYYCQQYYSAPLTFGGGTKVEIKR | 12.7 µg/mL |
| mAb 298 (antibody, V domains shown) VH: QVQLVQSGAEVKKPGASVKVSCKASGGTFSTYGISWVRQAPGQGLEWMGWISPNSGGTDLAQKFQGRVTMTRDTSTSTVYMELSSLRSEDTAVYYCASDPRDDIAGGYWGQGTLVTVSS VL: not shown | 2.2 µg/mL |
